Measured values from several laboratories, pooled; numbers as filed in NIAID ChemDB.

Common to all: whole-cell or culture tests; species: Candida albicans; read-out: zone

An empty or dashed field is not shown. Neighbouring rows are from separate reports. Zone: diameter of growth inhibition.

SMILES,strain,read by,tested at,result
O=C(CCc1c[nH]c2ccc(Cl)cc12)NCc1c[nH]c2ccc(Cl)cc12,,,25 µg/mL,<10 mm
CS(=O)(=O)c1nc(N)c(C#N)c(-c2cccc([N+](=O)[O-])c2)n1,MTCC 227,agar diffusion,100 µg/mL,19 mm
COc1ccc(-c2nn3c(-c4cc(Cc5ccc(OC)c(-c6nnc7sc(-c8ccc(OC)cc8)nn67)c5)ccc4OC)nnc3s2)cc1,ATCC 10231,agar diffusion / agar,100 µg/disc,10 mm
Cc1ccc(-c2nn(-c3ccc(S(N)(=O)=O)cc3)c3nc(C(F)(F)F)cc(C(F)(F)F)c23)cc1,MTCC 227,agar diffusion / agar,4000 µg/mL,0 mm
C=C[C@]1(C)CC[C@@H](O)[C@](C)(CCC=C(C)C)O1,,agar diffusion / agar,20000 µg/mL,9.21 mm
Cc1ccc(C(C)C)c(O)c1,MTCC,agar diffusion,100 µg/mL,8 mm
COc1ccc(-c2cc(/C=N/NC(=O)C34CC5CC(CC(C5)C3)C4)no2)cc1,IFO 0583,agar diffusion / agar,200 µg,≤10 mm
NS(=O)(=O)c1ccc(-n2nc(-c3ccc(Cl)cc3)c3c(C(F)(F)F)cc(-c4ccc(Cl)cc4)nc32)cc1,MTCC 227,agar diffusion / agar,4000 µg/mL,0 mm
Clc1ccccc1C(c1ccccc1)(c1ccccc1)n1ccnc1,IFO 0583,agar diffusion / agar,100 µg,21 mm
COc1ccc(-c2cc(C(F)(F)F)c3c(-c4ccc(Cl)cc4)nn(-c4ccc(S(N)(=O)=O)cc4)c3n2)cc1,MTCC 227,agar diffusion / agar,4000 µg/mL,0 mm
C[C@@H]1[C@H](O)[C@@H](C)/C=C/C=C/C=C/C=C/C=C/C=C/C=C/[C@H](O[C@@H]2O[C@H](C)[C@@H](O)[C@H](N)[C@@H]2O)C[C@@H]2O[C@](O)(C[C@@H](O)C[C@@H](O)[C@H](O)CC[C@@H](O)C[C@@H](O)CC(=O)O[C@H]1C)C[C@H](O)[C@H]2C(=O)O,ATCC 10231,agar diffusion / agar,100 µg/disc,30 mm
C[C@H]1[C@H](O)[C@@H](C)/C=C/C=C/C=C/C=C/C=C/C=C/C=C/[C@H](O[C@@H]2O[C@H](C)[C@@H](O)[C@H](N)[C@@H]2O)C[C@@H]2O[C@](O)(C[C@@H](O)C[C@@H](O)CC[C@H](O)[C@@H](O)C[C@@H](O)CC(=O)O[C@H]1C)C[C@H](O)[C@H]2C(=O)O,,agar diffusion,100 µM,19 mm
CS(=O)(=O)c1nc(N)c(C#N)c(-c2ccccc2Cl)n1,MTCC 227,agar diffusion,50 µg/mL,18 mm
NS(=O)(=O)c1ccc(-n2nc(-c3ccc(Cl)cc3)c3c(C(F)(F)F)cc(-c4ccc(-c5ccc6ccccc6c5)cc4)nc32)cc1,MTCC 227,agar diffusion / agar,4000 µg/mL,0 mm
CS(=O)(=O)c1nc(N)c(C#N)c(-c2ccccc2)n1,MTCC 227,agar diffusion,25 µg/mL,17 mm
O=C(CCc1c[nH]c2ccc(Cl)cc12)NCCCc1c[nH]c2ccc(OC(F)(F)F)cc12,,,25 µg/mL,<10 mm
COc1ccc(Cc2ccc(OC)c(-c3nnc4sc(-c5ccccc5)nn34)c2)cc1-c1nnc2sc(-c3ccccc3)nn12,ATCC 10231,agar diffusion / agar,100 µg/disc,10 mm
Cc1[nH]c2ccc(OC(F)(F)F)cc2c1CNC(=O)CCc1c[nH]c2ccc(Cl)cc12,,,25 µg/mL,<10 mm
CS(=O)(=O)c1nc(N)c(C#N)c(-c2ccc(O)cc2)n1,MTCC 227,agar diffusion,100 µg/mL,19 mm
Cc1ccc(-c2nn(-c3ccc(S(N)(=O)=O)cc3)c3nc(-c4ccc(-c5ccsc5)cc4)cc(C(F)(F)F)c23)cc1,MTCC 227,agar diffusion / agar,4000 µg/mL,0 mm
CSC1=NC(/C=C/c2ccccc2)C(C#N)=C(N)N1,MTCC 227,agar diffusion,100 µg/mL,20 mm
O=C(N/N=C/c1ncc[nH]1)C12CC3CC(CC(C3)C1)C2,IFO 0583,agar diffusion / agar,200 µg,17 mm
CSC1=NC(c2ccccc2[N+](=O)[O-])C(C#N)=C(N)N1,MTCC 227,agar diffusion,50 µg/mL,18 mm
COc1ccc(Cc2ccc(OC)c(-c3nnc4sc(-c5cccnc5)nn34)c2)cc1-c1nnc2sc(-c3cccnc3)nn12,ATCC 10231,agar diffusion / agar,100 µg/disc,26 mm
CSC1=NC(c2cccc([N+](=O)[O-])c2)C(C#N)=C(N)N1,MTCC 227,agar diffusion,100 µg/mL,19 mm
COc1ccc(Cc2ccc(OC)c(-c3nnc4sc(-c5ccccc5Cl)nn34)c2)cc1-c1nnc2sc(-c3ccccc3Cl)nn12,ATCC 10231,agar diffusion / agar,100 µg/disc,8 mm
CSC1=NC(c2ccc(Cl)cc2)C(C#N)=C(N)N1,MTCC 227,agar diffusion,25 µg/mL,18 mm
Cn1cc(CCCNC(=O)CCc2cn(C)c3ccc(Cl)cc23)c2cc(Cl)ccc21,,,25 µg/mL,<10 mm
CS(=O)(=O)c1nc(N)c(C#N)c(/C=C\c2ccccc2)n1,MTCC 227,agar diffusion,100 µg/mL,19 mm
COc1c(N2CC3CCCNC3C2)c(F)cc2c(=O)c(C(=O)[O-])cn(C3CC3)c12.COc1c(N2CC3CCCNC3C2)c(F)cc2c(=O)c(C(=O)[O-])cn(C3CC3)c12.[Cl][Cu+].[Cl][Cu+].c1c[nH]cn1.c1c[nH]cn1,,agar diffusion,100 µM,10 mm

For reference, 3 entries again:

SMILES | strain | read by | tested at | result
O=C(CCc1c[nH]c2ccc(Cl)cc12)NCCCc1c[nH]c2ccc(OC(F)(F)F)cc12 |  |  | 25 µg/mL | <10 mm
CSC1=NC(/C=C/c2ccccc2)C(C#N)=C(N)N1 | MTCC 227 | agar diffusion | 100 µg/mL | 20 mm
COc1ccc(-c2nn3c(-c4cc(Cc5ccc(OC)c(-c6nnc7sc(-c8ccc(OC)cc8)nn67)c5)ccc4OC)nnc3s2)cc1 | ATCC 10231 | agar diffusion / agar | 100 µg/disc | 10 mm